Assay results from USRE39240E1 (priority 1993, dated 2006).

Amino acid sequences for entries named in this document (tags omitted). Residues count along the entry.
UniProt P02716, 25-520 limits assumed: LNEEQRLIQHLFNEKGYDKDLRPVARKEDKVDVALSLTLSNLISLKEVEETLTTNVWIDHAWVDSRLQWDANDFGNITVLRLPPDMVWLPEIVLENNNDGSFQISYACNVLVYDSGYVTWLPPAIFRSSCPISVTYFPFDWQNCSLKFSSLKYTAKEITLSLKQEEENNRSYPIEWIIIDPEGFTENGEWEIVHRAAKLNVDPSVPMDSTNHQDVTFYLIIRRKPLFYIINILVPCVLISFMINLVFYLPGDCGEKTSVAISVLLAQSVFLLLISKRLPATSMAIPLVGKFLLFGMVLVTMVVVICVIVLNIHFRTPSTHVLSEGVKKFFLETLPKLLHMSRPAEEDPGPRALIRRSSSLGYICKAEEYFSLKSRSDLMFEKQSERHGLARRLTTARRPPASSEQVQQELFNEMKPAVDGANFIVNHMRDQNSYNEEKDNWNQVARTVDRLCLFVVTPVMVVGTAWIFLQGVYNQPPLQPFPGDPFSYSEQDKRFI
UniProt P04756, 21-457 limits assumed: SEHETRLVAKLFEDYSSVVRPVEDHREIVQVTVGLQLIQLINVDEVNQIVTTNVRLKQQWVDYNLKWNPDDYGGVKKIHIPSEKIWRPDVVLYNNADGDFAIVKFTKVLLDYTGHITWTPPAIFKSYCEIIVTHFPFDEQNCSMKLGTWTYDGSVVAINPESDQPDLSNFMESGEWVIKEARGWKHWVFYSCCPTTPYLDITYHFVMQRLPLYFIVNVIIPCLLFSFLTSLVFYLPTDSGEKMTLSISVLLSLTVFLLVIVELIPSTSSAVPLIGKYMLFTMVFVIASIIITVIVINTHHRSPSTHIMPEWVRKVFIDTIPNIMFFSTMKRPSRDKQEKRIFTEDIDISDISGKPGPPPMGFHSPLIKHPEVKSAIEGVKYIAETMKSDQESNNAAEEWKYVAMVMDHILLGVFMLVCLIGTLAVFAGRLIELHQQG
UniProt P20782, 21-493 limits assumed: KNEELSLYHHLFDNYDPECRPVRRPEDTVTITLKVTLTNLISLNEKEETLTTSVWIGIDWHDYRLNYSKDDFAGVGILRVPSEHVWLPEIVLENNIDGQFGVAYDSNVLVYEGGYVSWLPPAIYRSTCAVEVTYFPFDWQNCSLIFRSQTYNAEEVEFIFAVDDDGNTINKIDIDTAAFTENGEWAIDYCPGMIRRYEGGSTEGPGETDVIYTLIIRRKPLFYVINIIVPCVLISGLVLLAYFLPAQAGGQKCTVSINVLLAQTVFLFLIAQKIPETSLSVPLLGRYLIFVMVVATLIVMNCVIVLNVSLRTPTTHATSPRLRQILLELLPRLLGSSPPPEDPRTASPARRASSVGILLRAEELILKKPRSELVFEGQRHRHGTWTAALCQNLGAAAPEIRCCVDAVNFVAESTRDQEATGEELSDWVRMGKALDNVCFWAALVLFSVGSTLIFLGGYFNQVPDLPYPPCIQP
UniProt P09690, 24-501 partner limits assumed: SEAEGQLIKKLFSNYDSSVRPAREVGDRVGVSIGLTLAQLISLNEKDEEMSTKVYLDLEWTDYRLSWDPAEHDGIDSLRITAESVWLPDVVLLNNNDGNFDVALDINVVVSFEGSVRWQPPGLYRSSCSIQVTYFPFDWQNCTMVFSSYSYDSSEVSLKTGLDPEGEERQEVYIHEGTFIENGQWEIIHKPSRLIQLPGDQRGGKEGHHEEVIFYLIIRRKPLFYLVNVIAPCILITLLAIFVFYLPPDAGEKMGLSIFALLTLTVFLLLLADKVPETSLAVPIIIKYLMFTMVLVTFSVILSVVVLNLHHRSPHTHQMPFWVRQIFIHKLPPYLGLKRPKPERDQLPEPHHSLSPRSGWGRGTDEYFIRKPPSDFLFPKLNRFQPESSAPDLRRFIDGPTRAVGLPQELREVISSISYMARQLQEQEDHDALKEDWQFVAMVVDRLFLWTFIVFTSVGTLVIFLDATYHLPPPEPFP

Target: acetylcholine receptor (Mus musculus, UniProt P02716+P04756+P20782)
Experiment: binding to and inhibition of the acetylcholine receptor
Conditions: thereby causing paralysis and thereafter death

Substance: H-Gly-Cys-Cys-Gly-Ser-Tyr-Pro-Asn-Ala-Ala-Cys-His-Pro-Cys-Ser-Cys-Lys-Asp-Arg-4Hyp-Ser-Tyr-Cys-Gly-Gln-NH2
- effect on the acetylcholine receptor: binds to and inhibits the function of the acetylcholine receptor
